Results of unrelated studies side by side (data: NIAID ChemDB).

All rows: whole-cell or culture tests; organism: Mycobacterium tuberculosis

MIC50, MIC90 and the like: level of inhibition, or share of isolates inhibited.

SMILES,strain or isolate,changes,cell line,read by,conditions,read-out,dose,value
CS(=O)(=O)OC1COC(c2ccccc2)OC1C1OC(c2ccccc2)OC2COC(c3ccccc3)OC21,H37Rv,,,BACTEC,,MIC bound,,>12.5 µg/mL
CCOC(=O)CC(NCc1ccccc1)c1cccc([N+](=O)[O-])c1,Sensitive strains,,,,,MIC,,12.5 µg/mL
CN[C@@H]1[C@H](O[C@H]2[C@H](O[C@H]3[C@H](O)[C@@H](O)[C@H](N=C(N)N)[C@@H](O)[C@@H]3N=C(N)N)O[C@@H](C)[C@]2(O)C=O)O[C@@H](CO)[C@H](O)[C@H]1O,,Bedaquiline-resistant I66M,,broth dilution,,MIC80,,0.3 µM
CCn1cc(C(=O)O)c(=O)c2cc(F)c(N3CCN(C/C(=N/O)c4ccccc4)CC3)cc21,H37Rv,,,,,inhibition,6.25 µg/mL,44%
NC1CN(c2c(F)cc3c(=O)c(C(=O)O)cn(C4CC4)c3c2Cl)CC12CC2,44 (RFP-resistant),,,,,MIC,,0.1 µg/mL
O=C(CSc1nnc(-c2ccccn2)s1)N/N=c1/scc(-c2ccccc2)n1-c1ccccc1Cl,Clinical isolate 331,,,,,MIC,,>80 µg/mL
CCCCCCCCCCCCCCCCNCc1ccncc1,Clinical isolates MDR,,,,,MIC,,3.12 µg/mL
Cc1ccc2c(c1)[n+](=O)c(C(=O)c1ccccc1)c(C)n2[O-],H37Rv,,VERO,BACTEC,,inhibition,6.25 µg/mL,44%
Cc1ccc2c(c1)nc1cc3c(cc1n2C1CCCCC1)c(Cl)c(=O)c1ccccc13,H37Rv,,,BACTEC,,MIC,,0.78 µg/mL
N#Cc1cccc(CSc2ncn[nH]2)c1,My 331/88,,,,,MIC,,>1000 µM
CCCCCCCCCCCCCCCCNCc1ccc(Cl)cc1,Sensitive strains,,,,,MIC,,25 µg/mL
Cc1ccc2nc(-c3ccc(Cl)cc3Cl)oc(=O)c2c1,H37Rv,,,BACTEC,,inhibition,12.5 µg/mL,27%
CCCCCCCCNC(CCO)c1cccc([N+](=O)[O-])c1,H37Ra,,,,,MIC,,<25 µg/mL
C[C@H]1COc2c(N3CCN(C)CC3)c(F)cc3c(=O)c(C(=O)O)cn1c23,ATCC 35828,,,,,MIC,,0.25 µg/mL
O=c1ccc2c(N3CCCCC3)cc(N3CCOCC3)nc2[nH]1,H37Rv,,,BACTEC,,inhibition,6.25 µg/mL,0%
c1ccc(CSc2ncn[nH]2)cc1,My 331/88,,,,,MIC,,500 µM
O=C(O)c1cnccn1,H37Rv,,,BACTEC,,MIC,,≥12.5 µg/mL
CCCCNC(CC(=O)OCC)c1cccc(Cl)c1,Sensitive strains,,,,,MIC,,25 µg/mL
O=C(O)c1cn(C2CC2)c2cc(N3CCN(C/C(=N/O)c4ccc(F)cc4)CC3)c(F)cc2c1=O,H37Rv,,VERO,,,EC50,,<6.25 µg/mL
CCn1c(-c2ccc(N=Nc3c(C)[nH][nH]c3=O)cc2)n[nH]c1=S,H37Rv,,,,,MIC,,>12.5 µg/mL
CC(=O)c1c(C)n([O-])c2ccc(C)cc2[n+]1=O,H37Rv,,VERO,BACTEC,,MIC,,3.13 µg/mL
OC1(c2ccccc2)c2ccccc2NC2=NCCN21,H37Rv,,,BACTEC,,MIC bound,,>12.5 µg/mL
CCOC(=O)/C(N=Nc1ccc(C(=O)N/N=C\c2ccc(F)cc2)cc1)=C(\C)O,H37Rv,,,,,MIC,,>12.5 µg/mL
O=C(Nc1ccccc1)c1ccccc1OP(=O)(Oc1ccccc1)c1ccccc1,My 331/88,,,,7 d,MIC,,250 µM
Oc1cccc(CNCCCCCNCc2cccc(O)c2)c1,H37Ra,,,,,MIC,,>25 µg/mL
CCCCNC(=O)c1cc2c(cc1Cl)Sc1nccn1S2(=O)=O,H37Rv,,,resazurin,,inhibition,6.25 µg/mL,-18%
C[C@H]1C[C@H](N)CN1c1cc2c(cc1F)c(=O)c(C(=O)O)cn2-c1ccc(F)cc1F,H37Rv,,,,,MBC,,>8 µg/mL
Cc1cccc(-c2cs/c(=N/NC(=O)CSc3nnc(-c4ccccn4)s3)n2-c2ccccc2)c1,Clinical isolate 190,,,,,MIC,,>80 µg/mL
c1ccc2c(c1)Sc1ccccc1N2CC1CN2CCC1CC2,H37Rv,,,BACTEC,,inhibition,12.5 µg/mL,80%
C/C=C/c1ccc2oc(-c3ccc(O)c(OC)c3)c(C)c2c1,Clinical isolate 27,,,resazurin / absorbance,,MIC,,3.9 µg/mL
O=c1[nH]c(=O)c2ncn(-c3ccc([N+](=O)[O-])cn3)c2[nH]1,H37Rv,,,resazurin,,MIC bound,,>6.25 µg/mL
COc1ccccc1N1CCN(Cc2c(C(C)=O)[n+](=O)c3ccccc3n2[O-])CC1,H37Rv,,,BACTEC,,EC50,,>6.25 µg/mL
Brc1cccc(CSc2ncn[nH]2)c1,My 331/88,,,,,MIC,,250 µM
CCCCCCCCNC(CC(=O)OCC)c1cccc([N+](=O)[O-])c1,H37Ra,,,,,MIC,,>25 µg/mL
Nc1cc2ncnn2c(SCC(=O)N/N=C/C(Br)=C/c2ccccc2)n1,H37Rv,,,resazurin,,MIC bound,,>6.25 µg/mL
O=C(Nc1ccc(C(F)(F)F)cc1)c1cc(Cl)ccc1OP(=O)(c1ccccc1)c1ccccc1,Praha 131,,,,21 d,MIC,,1 µM
Nc1ccc2c(Cl)cc(N3CCCCC3)nc2n1,H37Rv,,,BACTEC,,EC50,,>6.25 µg/mL
O=C(CSc1nnc(-c2ccccn2)s1)N/N=c1/scc(-c2ccccc2)n1-c1ccc(Br)cc1,Clinical isolate 190,,,,,MIC,,40 µg/mL
Cc1ccc(/C(CN2CCN(c3cc4c(cc3F)c(=O)c(C(=O)O)cn4C3CC3)CC2)=N\O)cc1,H37Rv,,,,,EC50,,>6.25 µg/mL
COc1ccc2c(c1)CC(CN1CCC3(CC1)C(=O)N(C)CN3c1ccccc1)O2,H37Rv,,,BACTEC,,MIC bound,,>12.5 µg/mL
C=CCn1c(-c2ccc(N=N/C(C(=O)OCC)=C(/C)O)cc2)n[nH]c1=S,H37Rv,,,,,inhibition,12.5 µg/mL,0%
CC(=O)c1c(COc2ccc([N+](=O)[O-])cc2)n([O-])c2ccccc2[n+]1=O,H37Rv,,VERO,BACTEC,,EC50,,<6.25 µg/mL
C/C=C/c1ccc2c(c1)[C@@H](C)[C@H](c1ccc(OC)cc1)O2,Clinical isolate 4851,,,resazurin / absorbance,,MIC,,7.8 µg/mL
O=[N+]([O-])c1ccc(N2CCOCC2)c2c1no[n+]2[O-],H37Rv,,VERO,,,MIC,,6.25 µg/mL
CO[C@H]1/C=C/O[C@@]2(C)Oc3c(C)c(O)c4c(O)c(c(/C=N/N5CCN(C)CC5)c(O)c4c3C2=O)NC(=O)/C(C)=C\C=C\[C@H](C)[C@H](O)[C@@H](C)[C@@H](O)[C@@H](C)[C@H](OC(C)=O)[C@@H]1C,35820,Streptomycin-resistant,,broth dilution,,MIC80,,0.04 µM
O=[N+]([O-])c1cccc(F)c1CSc1ncn[nH]1,My 331/88,,,,,MIC,,1000 µM
O=C1c2cc(Br)ccc2OP(=O)(c2ccccc2)N1c1ccc(C(F)(F)F)cc1,9449/2007,,,,14 d,MIC,,1 µM
Cc1[nH]n(-c2ccccc2)c(=O)c1N=Nc1ccc(-c2n[nH]c(=S)n2-c2ccccc2)cc1,H37Rv,,,,,inhibition,12.5 µg/mL,17%
COC(=O)c1ccc(C(=O)OC)c2nc3cc(C)c(C)cc3nc12,H37Rv,,,BACTEC,,inhibition,12.5 µg/mL,-1%
NC1CCN(c2c(F)cc3c(=O)c(C(=O)O)cn(C4CC4)c3c2Cl)C1,ATCC35838,,,,,MBC,,0.125 µg/mL
CCOC(=O)C1C/C(=N\OS(=O)(=O)c2ccc(C)cc2)c2ccc(OC)c(OC)c2C1,H37Rv,,,resazurin,,MIC bound,,>6.25 µg/mL
CCCCCCCCC=CCCCCCCCCNCc1cccnc1,H37Ra,,,,,MIC,,<25 µg/mL
NNC(=O)c1ccncc1,Clinical isolate 17,Isoniazid-resistant,,resazurin / absorbance,,MIC,,2 µg/mL
Cc1c(C(=O)c2ccccc2)[n+](=O)c2cc(Cl)ccc2n1[O-],H37Rv,,VERO,BACTEC,,inhibition,6.25 µg/mL,100%
CCC1CN(c2c(F)cc3c(=O)c(C(=O)O)cn(C4CC4)c3c2OC)CCN1,68 (RFP-susceptible),,,,,MIC,,0.25 µg/mL
O=C(CN1CCN(c2cc3c(cc2F)c(=O)c(C(=O)O)cn3C2CC2)CC1)c1ccc(F)cc1,H37Rv,,VERO,,,inhibition,6.25 µg/mL,102%
O=C(Nc1ccc(C2=NCCN2)cc1)c1cccc(C(=O)Nc2ccc(C3=NCCN3)cc2)n1,H37Rv,,,BACTEC,,MIC bound,,>128 µg/mL
CC(=O)c1c(C)n([O-])c2cc(C)c(C)cc2[n+]1=O,H37Rv,,VERO,BACTEC,,EC50,,<6.25 µg/mL
O=C(O)c1cn(C2CC2F)c2c(Cl)c(N3CC4CCCNC4C3)c(F)cc2c1=O,56 (RFP-resistant),,,,,MIC,,3.13 µg/mL
NNC(=O)c1ccncc1,Isolate UT2419 (katG S315T mutation),,,,,MIC,,4 µg/mL
CN(Cc1ccc(Cl)cc1)C(=S)SCc1cccs1,H37Rv,,,BACTEC,,inhibition,128 µg/mL,96%
Clc1ccc2c(N3CCOCC3)cc(N3CCOCC3)nc2n1,H37Rv,,,BACTEC,,EC50,,>6.25 µg/mL
O=C(CSc1nnc(-c2ccccn2)s1)N/N=c1/scc(-c2ccccc2)n1-c1cccc(Br)c1,H37Rv,,,,,MIC,,>80 µg/mL
CC(=O)Nc1ccc2c(Cl)cc(N3CCCCC3)nc2n1,H37Rv,,,BACTEC,,inhibition,6.25 µg/mL,8%
CO[C@H]1/C=C/O[C@@]2(C)Oc3c(C)c(O)c4c(O)c(c(/C=N/N5CCN(C)CC5)c(O)c4c3C2=O)NC(=O)/C(C)=C\C=C\[C@H](C)[C@H](O)[C@@H](C)[C@@H](O)[C@@H](C)[C@H](OC(C)=O)[C@@H]1C,H37Rv (isoniazid-resistant),,,,,MIC,,10 µg/mL
O=C(Nc1ccccc1)c1ccccc1OP(=O)(OCc1ccccc1)OCc1ccccc1,My 331/88,,,,7 d,MIC,,125 µM
CO[C@H]1/C=C/O[C@@]2(C)Oc3c(C)c(O)c4c(O)c(c5c(c4c3C2=O)NC2(CCN(CC(C)C)CC2)N=5)=NC(=O)/C(C)=C\C=C\[C@H](C)[C@H](O)[C@@H](C)[C@@H](O)[C@@H](C)[C@H](OC(C)=O)[C@@H]1C,TBSMI-1 (rifampin-susceptible),,,,,MIC,,<0.5 µg/mL
C[C@H]1Oc2nc([N+](=O)[O-])cn2C[C@@H]1OCc1ccc(OC(F)(F)F)cc1,H37Rv-5A1,,,absorbance,,MIC,,>100 µM
O=[N+]([O-])c1ccc(CSc2ncn[nH]2)cc1,My 331/88,,,,,MIC,,1000 µM
COc1ccc(CN2C(=O)C(=O)N(C)C2=O)c2ccccc12,H37Rv,,,BACTEC,,inhibition,12.5 µg/mL,58%
NNC(=O)c1ccncc1,,Bedaquiline-resistant I66M,,broth dilution,,MIC80,,0.2 µM
CC[C@H]1OC(=O)[C@H](C)[C@@H](O[C@H]2C[C@@](C)(OC)[C@@H](O)[C@H](C)O2)[C@H](C)[C@@H](O[C@@H]2O[C@H](C)C[C@H](N(C)C)[C@H]2O)[C@](C)(OC)C[C@@H](C)C(=O)[C@H](C)[C@@H](O)[C@]1(C)O,ATCC 35830,,,,,MIC,,>8 µg/mL
Cc1c(C(=O)c2ccccc2)[n+](=O)c2cc(Cl)c(Cl)cc2n1[O-],H37Rv,,VERO,BACTEC,,inhibition,6.25 µg/mL,100%
O=c1ccc2c(Cl)cc(N3CCOCC3)nc2[nH]1,H37Rv,,,BACTEC,,EC50,,>6.25 µg/mL
COc1ccc(C2COc3cc(OC(C)=O)c(OC(C)=O)cc3C2)cc1,H37Rv,,,BACTEC,,MIC,,≥12.5 µg/mL
CC(=O)c1c(CBr)n([O-])c2cc(Cl)c(Cl)cc2[n+]1=O,H37Rv,,,BACTEC,,inhibition,6.25 µg/mL,0%
O=C(CSc1nnc(-c2ccccn2)s1)N/N=c1/scc(-c2ccccc2)n1-c1cccc(Cl)c1,H37Rv,,,,,MIC,,>80 µg/mL
COC(=O)/C(=N\NC(=O)C[N+](C)(C)C)C(C(=O)OC)C(=O)C(=O)Nc1ccc(F)cc1.[Cl-],H37Rv,,,BACTEC,,MIC bound,,>12.5 µg/mL
C=CCn1c(-c2ccc(N=Nc3c(C)[nH]n(-c4ccccc4)c3=O)cc2)n[nH]c1=S,H37Rv,,,,,inhibition,12.5 µg/mL,40%
CO[C@H]1C[C@@H]2\C=C(C)/C=C/C=C\C(=O)N[C@H](c3ccccc3)C/C=C/CC[C@H](O)CC(=O)C2=C1O,KM-R,,,,,MIC,,3.1 µg/mL
O=C1c2cc(Cl)ccc2OP(=O)(c2ccccc2)N1c1ccc(C(F)(F)F)cc1,9449/2007,,,,21 d,MIC,,1 µM
Cc1ccccc1-c1cs/c(=N/NC(=O)CSc2nnc(-c3ccccn3)s2)n1-c1ccccc1,Clinical isolate 180,,,,,MIC,,>80 µg/mL
CC(C)(O)/C1=C/C=C/CCCCCCCCCC1,H37Rv,,,resazurin,,inhibition,6.25 µg/mL,9%
O=C(Nc1ccc(Br)cc1)c1cc(Cl)ccc1OP(=O)(Oc1ccccc1)Oc1ccccc1,My 331/88,,,,7 d,MIC,,4 µM

Neighbouring rows are from separate reports. MIC bound comes from a single tested concentration. Blank or dashed fields: not listed here. ECn: concentration that inhibits the pathogen or its effect by n%. Inhibition is in % at the dose shown (toxicity tests: loss of growth or viability).